{
  "sequences": {"note": "Amino acid sequences for entries named in this document (tags omitted). A change or cut given only in a name is not applied to a line headed by its entry.", "UniProt P05866": "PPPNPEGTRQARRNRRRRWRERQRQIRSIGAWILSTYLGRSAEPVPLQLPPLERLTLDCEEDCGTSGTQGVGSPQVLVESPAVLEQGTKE"},
  "source": "PubChem BioAssay AID704",
  "about": "(The Scripps Research Institute Molecular Screening Center, 2007)",
  "note": "The entries are a selection whose mix differs from that of the whole data set. Calls of active or inactive are those of the source.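 Rule for the calls: active = inhibition above the screen-wide mean plus 3 SD (cut at about 35% in these data); inactive = the rest.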",
  "data": [
    {"biological_target": "Protein Rev (Human immunodeficiency virus type 1 group M subtype B (isolate WMJ22)) (UniProt P05866)", "assay": "HIV-1 Rev-RRE binding inhibitors, primary screen, biochemical, FRET, protein-RNA interaction (AID 704)", "settings": "Rev peptide-RRE RNA binding, at 8 µM, active compounds read high", "procedure,_shortened": "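Test system – labelled RRE RNA duplex and labelled Rev peptide · Reagent – labelled Rev peptide · Doses – one concentration, 8 µM nominal · Incubation – 5 + 15 min at 25 °C · Signal – FRET fluorescence readout · Read-out basis – % inhibition of FRET ratio versus controls · Control set – DMSO wells as 0% and neomycin B wells as 100% inhibition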", "values": [
      {"smiles": "CCOC(=O)NC(Sc1ccccc1)C(Cl)(Cl)Cl", "note": "(stereo not drawn)", "inhibition": "inactive: 9.96%"},
      {"smiles": "COC(=O)c1cc2c(s1)N=C(c1ccccc1)N(C)P2(=O)N1CCOCC1", "note": "(stereo not drawn)", "inhibition": "inactive: 7.49%"},
      {"smiles": "CCC(=O)N1C2C3N(C(=O)CC)C1C1N(C(=O)CC)C(C(N1C(=O)CC)N3C(=O)CC)N2C(=O)CC", "inhibition": "inactive: 3.08%"},
      {"smiles": "O=P1(Nc2nc3ccc(Cl)cc3s2)COc2ccccc2O1", "note": "(stereo not drawn)", "inhibition": "inactive: 1.75%"},
      {"smiles": "c1nnnn1CCn1cnnn1", "inhibition": "inactive: 5.21%"},
      {"smiles": "O=P(Nc1nccs1)(c1ccccc1)c1ccccc1", "inhibition": "inactive: -4.31%"},
      {"smiles": "O=C(OC1CN2CCC1CC2)c1cccc(Cl)c1", "note": "(stereo not drawn)", "inhibition": "inactive: 0.88%"},
      {"smiles": "O=[N+]([O-])c1cccc2n[nH]nc12", "inhibition": "inactive: 5.86%"},
      {"smiles": "CC(=O)N1C2C3N(C(C)=O)C1C1N(C(C)=O)C(C(N1C(C)=O)N3C(C)=O)N2C(C)=O", "inhibition": "inactive: 3.38%"},
      {"smiles": "CCc1nc2c(n1)c1c(non1O)c1c2no[n+]1[O-]", "inhibition": "inactive: 5.52%"},
      {"smiles": "CC1CCN(C(=O)Oc2c(Cl)cc(Cl)c3cccnc23)CC1", "inhibition": "inactive: 6.69%"},
      {"smiles": "CN1CCCC(OC(=O)C(c2ccccc2)c2ccccc2)C1", "note": "(stereo not drawn)", "inhibition": "inactive: -3.79%"},
      {"smiles": "CC(C)CC(=O)NC(Sc1ccc(Cl)cc1)C(Cl)(Cl)Cl", "note": "(stereo not drawn)", "inhibition": "inactive: 12.6%"},
      {"smiles": "Oc1ccccc1CNc1ccccn1", "inhibition": "inactive: 5.73%"},
      {"smiles": "Cc1c2non([O-])c-2c(C)[n+](=O)[n+]1[O-]", "inhibition": "inactive: -3.21%"},
      {"smiles": "CCOP(=O)(Nc1ccccc1)OCC", "inhibition": "inactive: 4.31%"},
      {"smiles": "CCN(CC)C(=S)SC(NC=O)C(Cl)(Cl)Cl", "note": "(stereo not drawn)", "inhibition": "inactive: -1.29%"},
      {"smiles": "ClCCSc1nnc(-c2cccnc2)o1", "inhibition": "inactive: 3.76%"},
      {"smiles": "O=C(OC1CN2CCC1CC2)C12CC3CC(CC(C3)C1)C2", "note": "(stereo not drawn)", "inhibition": "inactive: -1.19%"},
      {"smiles": "O=C(COc1ccccc1)OC1CN2CCC1CC2", "note": "(stereo not drawn)", "inhibition": "inactive: 8.41%"},
      {"smiles": "COP1(=S)c2c(C)nn(CCC#N)c2N=C(c2ccc(F)cc2)N1C", "note": "(stereo not drawn)", "inhibition": "inactive: 3.69%"},
      {"smiles": "CCC(C)N(CC(C)C)C(=S)SC(NC(C)=O)C(Cl)(Cl)Cl", "note": "(stereo not drawn)", "inhibition": "inactive: 0.97%"},
      {"smiles": "Cc1nn(-c2ccccc2)c2c1P(=O)(N1CCOCC1)N(C)C(c1ccccc1)=N2", "note": "(stereo not drawn)", "inhibition": "inactive: 2.89%"},
      {"smiles": "O=P1(Nc2ccc(Br)cn2)COc2ccccc2OC1", "inhibition": "inactive: 4.71%"},
      {"smiles": "Cc1ccc(OCC(=O)OC2CN3CCC2CC3)cc1", "note": "(stereo not drawn)", "inhibition": "inactive: 0.2%"},
      {"smiles": "O=P1(Nc2ncccn2)COc2ccccc2OC1", "inhibition": "inactive: 0.81%"},
      {"smiles": "Clc1n[nH]nc1-c1nn[nH][15n]1", "inhibition": "inactive: 3.86%"},
      {"smiles": "O=P1(Nc2ccccn2)COc2ccccc2OC1", "inhibition": "inactive: 5.2%"},
      {"smiles": "CC1(CBr)Cn2c(nc3ccccc3c2=O)S1", "note": "(stereo not drawn)", "inhibition": "inactive: 2.21%"},
      {"smiles": "Cc1cccc(OCC(=O)OC2CN3CCC2CC3)c1", "note": "(stereo not drawn)", "inhibition": "inactive: 9.25%"},
      {"smiles": "CCOP1(=S)c2c(C)nn(CCC#N)c2N=C(c2ccccc2F)N1C", "note": "(stereo not drawn)", "inhibition": "inactive: 7.79%"},
      {"smiles": "O=[N+]([O-])c1ccc2c(c1)nnn2O", "inhibition": "inactive: 1.94%"},
      {"smiles": "CCOP1(=S)c2c(C)nn(CCC#N)c2N=C(c2ccc(F)cc2)N1C", "note": "(stereo not drawn)", "inhibition": "inactive: 8%"}
    ]}
  ]
}
